Experiment: Safety: adverse event monitoring
Format: in vivo, healthy Chinese subjects
Details: whole study

Deucravacitinib
electrocardiogram results and vital signs: No clinically significant abnormal electrocardiogram results or changes in vital signs were observed

Source: publication PMC10689320 (Dermatology and Therapy, 2023)
